Laboratory results taken from patent US6534523B1, “Hepatitis C inhibitor tri-peptides” (Boehringer Ingelheim (Canada) Ltd., priority 1998, dated 2003).

Sequences of proteins named here, by UniProt entry; tags and fusion partners are left off. A change or cut given only in a name is not applied to a line headed by its entry. Residues count along the entry.
UniProt P26663, 1027-1206 limits assumed: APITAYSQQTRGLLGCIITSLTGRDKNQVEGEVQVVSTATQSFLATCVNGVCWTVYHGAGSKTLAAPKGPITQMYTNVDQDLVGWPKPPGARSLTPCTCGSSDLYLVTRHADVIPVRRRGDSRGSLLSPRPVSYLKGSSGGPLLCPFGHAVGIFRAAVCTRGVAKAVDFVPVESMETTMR

Biological target: HCV NS3 protease (UniProt P26663)
Procedure: Recombinant HCV NS3 Protease/NS4A Cofactor Peptide Radiometric Assay
The enzyme was cloned, expressed and prepared according to the protocol described in Example 36. The enzyme was stored at −80° C., thawed on ice and diluted just prior to use in the assay buffer containing the NS4A cofactor peptide.
The substrate used for the NS3 protease/NS4A cofactor peptide radiometric assay, DDIVPC-SMSYTW, is cleaved between the cysteine and the serine residues by the enzyme. The sequence DDIVPC-SMSYTW corresponds to the NS5A/NS5B natural cleavage site in which the cysteine residue in P2 has been substituted for a proline. The peptide substrate DDIVPC-SMSYTW and the tracer biotin-DDIVPC-SMS[^125I-Y]TW are incubated with the recombinant NS3 protease and the NS4A peptide cofactor KKGSVVIVGRIILSGRK (molar ratio enzyme:cofactor 1:100) in the absence or presence of inhibitors. The separation of substrate from products is performed by adding avidin-coated agarose beads to the assay mixture followed by filtration. The amount of SMS[^125I-Y]TW product found in the filtrate allows for the calculation of the percentage of substrate conversion and of the percentage of inhibition.
The enzymatic reaction was initiated by the addition of the enzyme/NS4A peptide solution and the assay mixture was incubated for 40 min at 23° C. under gentle agitation. Ten (10) μL of 0.5N NaOH were added and 10 μL 1 M MES, pH 5.8 were added to quench the enzymatic reaction.
A non-linear curve fit with the Hill model was applied to the inhibition-concentration data, and the 50% effective concentration (IC50) was calculated by the use of SAS software (Statistical Software System; SAS Institute, Inc. Cary, N.C.). […]
The NS2-NS5B-3′ non coding region was cloned by RT-PCR into the pCR®3 vector (Invitrogen) using RNA extracted from the serum of an HCV genotype 1b infected individual (provided by Dr. Bernard Willems, Hôpital St-Luc, Montréal, Québec, Canada). The NS3-NS4A DNA region was then subcloned by PCR into the pFastBac™ HTa baculovirus expression vector (Gibco/BRL). The vector sequence includes a region encoding a 28-residue N-terminal sequence which contains a hexahistidine tag. The Bac-to-Bac™ baculovirus expression system (Gibco/BRL) was used to produce the recombinant baculovirus. The full length mature NS3 and NS4A heterodimer protein (His-NS3-NS4AFL) was expressed by infecting 10^6 Sf21 cells/mL with the recombinant baculovirus at a multiplicity of infection of 0.1-0.2 at 27° C. The infected culture was harvested 48 to 64 h later by centrifugation at 4° C. The cell pellet was homogenized in 50 mM NaPO4, pH 7.5, 40% glycerol (w/v), 2 mM β-mercaptoethanol, in presence of a cocktail of protease inhibitors. His-NS3-NS4AFL was then extracted from the cell lysate with 1.5% NP-40, 0.5% Triton X-100, 0.5M NaCl, and a DNase treatment. After ultracentrifugation, the soluble extract was diluted 4-fold and bound on a Pharmacia Hi-Trap Ni-chelating column. The His-NS3-NS4AFL was eluted in a >90% pure form (as judged by SDS-PAGE), using a 50 to 400 mM imidazole gradient. The His-NS3-NS4AFL was stored at −80° C. in 50 mM sodium phosphate, pH 7.5, 10% (w/v) glycerol, 0.5 M NaCl, 0.25 M imidazole, 0.1% NP-40. It was thawed on ice and diluted just prior to use. The protease activity of His-NS3-NS4AFL was assayed in 50 mM Tris-HCl, pH 8.0, 0.25 M sodium citrate, 0.01% (w/v) n-dodecyl-β-D-maltoside, 1 mM TCEP. Five (5) μM of the internally quenched substrate anthranilyl-DDIVPAbu[C(O)—O]-AMY(3-NO2)TW-OH in presence of various concentrations of inhibitor were incubated with 1.5 nM of His-NS3-NS4AFL for 45 min at 23° C. […] The reaction was terminated with the addition of 1M MES, pH 5.8. Fluorescence of the N-terminal product was monitored on a Perkin-Elmer LS-50B fluorometer equipped with a 96-well plate reader (excitation wavelength: 325 nm; emission wavelength: 423 nm).
The following tables list compounds representative of the invention.

Row | SMILES | IC50 (Table 3) | other results
1 | C=CC1CC1(NC(=O)C1CC(Oc2cc(C(F)(F)F)nc3c(C(F)(F)F)cccc23)CN1C(=O)C(NC(=O)OC(C)(C)C)C(C)(C)C)C(=O)O (centres unmarked) | 1950 nM | –
2 | C=CC1CC1(NC(=O)C1CC(Oc2cc(C)nc3ccccc23)CN1C(=O)C(NC(=O)OC(C)(C)C)C1CCCCC1)C(=O)O (centres unmarked) | 2500 nM | –
3 | C=C1CC(NC(=O)[C@@H]2C[C@@H](Oc3cc(-c4ccccc4)nc4cc(OC)ccc34)CN2C(=O)[C@@H](NC(=O)OC(C)(C)C)C(C)(C)C)(C(=O)O)C1 | – | IC50 (Table 4): 600 nM
4 | CCC1CC1(NC(=O)C1CC(Oc2cc(-c3ccccc3)nc3cc(OC)ccc23)CN1C(=O)C(NC(=O)OC(C)(C)C)C(C)(C)C)C(=O)O (centres unmarked) | 130 nM | –
5 | C=CC1CC1(NC(=O)C1CC(Oc2nc(-n3ccnc3)nc3cc(OC)c(OC)cc23)CN1C(=O)C(NC(=O)OC(C)(C)C)C(C)(C)C)C(=O)O (centres unmarked) | 320 nM | –
6 | C=CC1CC1(NC(=O)C1CC(Sc2cc(-c3ccccc3)nc3cc(OC)ccc23)CN1C(=O)C(NC(=O)OC(C)(C)C)C(C)(C)C)C(=O)O (centres unmarked) | – | IC50 (Table 10): 320 nM
7 | C=CC1CC1(NC(=O)C1CC(Oc2cc(-c3ccccc3)nc3ccccc23)CN1C(=O)C(NC(C)=O)C1CCCCC1)C(=O)O (centres unmarked) | 1900 nM | –
8 | COc1ccc2c(OC3CC(C(=O)NC4(C(=O)O)CC4C4CC4)N(C(=O)C(NC(=O)OC(C)(C)C)C(C)(C)C)C3)cc(-c3ccccc3)nc2c1 (centres unmarked) | 153 nM | –
9 | C=CC1CC1(NC(=O)C1CC(Oc2cc(-c3csc(N)n3)nc3ccccc23)CN1C(=O)C(NC(=O)OC(C)(C)C)C(C)(C)C)C(=O)O (centres unmarked) | – | IC50 (Table 6): 87 nM
10 | C=CC1CC1(NC(=O)C1CC(Oc2nc(-c3ccccc3)nc3ccccc23)CN1C(=O)C(Nc1ccc(C(=O)O)cc1)C1CCCCC1)C(=O)O (centres unmarked) | 650 nM | –
11 | COc1ccc2c(O[C@@H]3C[C@@H](C(=O)NC4(C(=O)O)CC4)N(C(=O)[C@@H](NC(=O)OC(C)(C)C)C(C)(C)C)C3)cc(-c3ccccc3)nc2c1 | – | IC50 (Table 1): 475 nM; IC50 (read-out: activity / potency (HCV NS3 protease inhibition), text comparison of P1 configuration): 475 nM
12 | O=C(N[C@H](C(=O)N1C[C@H](OCc2cccc3ccccc23)C[C@H]1C(=O)NC1(C(=O)O)CC1)C1CCCCC1)C(CC1CCCCC1)CC1CCCCC1 | – | IC50 (Table 1): 29500 nM
13 | CC[C@@H]1C[C@]1(NC(=O)[C@@H]1C[C@@H](OCc2cccc3cccnc23)CN1C(=O)[C@@H](NC(=O)OC(C)(C)C)C1CCCCC1)C(=O)O | 32000 nM | –
14 | C=CC1CC1(NC(=O)C1CC(Oc2cc(-c3ccccc3)nc3ccc(N)cc23)CN1C(=O)C(NC(=O)OC(C)(C)C)C1CCCCC1)C(=O)O (centres unmarked) | 660 nM | –
15 | C=C[C@@H]1C[C@]1(NC(=O)[C@@H]1C[C@@H](Oc2cccc3cnccc23)CN1C(=O)[C@@H](NC(=O)OC(C)(C)C)C1CCCCC1)C(=O)O | 2500 nM | –
16 | C=CC1CC1(NC(=O)C1CC(Oc2cc(-c3ccccc3)nc3ccccc23)CN1C(=O)C(NC(=O)OC(C)(C)C)C1CCCCC1)C(=O)O (centres unmarked) | 140 nM | –
17 | C=CC1CC1(NC(=O)C1CC(Oc2cccc3c2CCN(C(C)=O)C3)CN1C(=O)C(NC(=O)OC(C)(C)C)C(C)(C)C)C(=O)O (centres unmarked) | 6000 nM | –
18 | C=CC1CC1(NC(=O)C1CC(Oc2cc(-c3ccccc3)nc3ccccc23)CN1C(=O)C(NC(=O)NC(C)(C)C)C(C)(C)C)C(=O)O (centres unmarked) | 71 nM | –
19 | CCOC(=O)c1ccc(N[C@H](C(=O)N2C[C@H](OCc3cccc4ccccc34)C[C@H]2C(=O)NC2(C(=O)O)CC2)C2CCCCC2)cc1 | – | IC50 (Table 1): 42000 nM
20 | C=CC1CC1(NC(=O)C1CC(Oc2cc(-c3csc(NC(C)=O)n3)nc3cc(OC)ccc23)CN1C(=O)C(NC(=O)NC(C)C(C)(C)C)C(C)(C)C)C(=O)O (centres unmarked) | 3 nM | –
21 | C=CC1CC1(NC(=O)C1CC(Oc2cc(Cl)c3ccccc3n2)CN1C(=O)C(NC(=O)OC(C)(C)C)C(C)(C)C)C(=O)O (centres unmarked) | 3200 nM | –
22 | C=CC1CC1(NC(=O)C1CC(Oc2cc(-c3ccccc3)nc3ccc(NC(C)=O)cc23)CN1C(=O)C(NC(=O)OC(C)(C)C)C1CCCCC1)C(=O)O (centres unmarked) | 320 nM | –

Row | SMILES | IC50 (Table 3) | other results
23 | O=C(NC1CCCCC1)N[C@H](C(=O)N1C[C@H](OCc2cccc3ccccc23)C[C@H]1C(=O)NC1(C(=O)O)CC1)C1CCCCC1 | – | IC50 (Table 1): 47000 nM
24 | C=CC1CC1(NC(=O)C1CC(Oc2ccnc3cc(OC)ccc23)CN1C(=O)C(NC(=O)NC(C)(C)C)C(C)(C)C)C(=O)O (centres unmarked) | 45 nM | –
25 | C=CC1CC1(NC(=O)C1CC(Oc2ccnc3ccccc23)CN1C(=O)C(NC(=O)OC(C)(C)C)C(C)OC)C(=O)O (centres unmarked) [compound 505] | – | IC50 (Table 5): 2600 nM
26 | CCC1CCC1(NC(=O)[C@@H]1C[C@@H](Oc2cc(-c3ccccc3)nc3cc(OC)ccc23)CN1C(=O)[C@@H](NC(=O)OC(C)(C)C)C(C)(C)C)C(=O)O (some centres unmarked) | – | IC50 (Table 4): 400 nM
27 | CC(C)(C)OC(=O)N[C@H](C(=O)N1C[C@H](Oc2ccnc3cc(Cl)ccc23)C[C@H]1C(=O)NC1(C(=O)O)CCC1)C(C)(C)C | – | IC50 (Table 4): 7900 nM
28 | CCC1CC1(NC(=O)[C@@H]1C[C@@H](OCc2cccc3ccccc23)CN1C(=O)[C@@H](NC(=O)OC(C)(C)C)C1CCCCC1)C(=O)O (single isomer, unassigned) [201] | – | IC50 (Table 2): 15000 nM
29 | C[C@H](C(=O)N[C@H](C(=O)N1C[C@H](OCc2cccc3ccccc23)C[C@H]1C(=O)NC1(C(=O)O)CC1)C1CCCCC1)C1CCCCC1 | – | IC50 (Table 1): 45000 nM
30 | C=CC1CC1(NC(=O)C1CC(Oc2ccnc3ccccc23)CN1C(=O)C(C)NC(=O)OC(C)(C)C)C(=O)O (centres unmarked) | – | IC50 (Table 5): 6200 nM
31 | C=CC1CC1(NC(=O)C1CC(Oc2ccnc3cc(Cl)ccc23)CN1C(=O)C(NC(=O)OC(C)(C)C)C1CCCCC1)C(=O)O (centres unmarked) | 560 nM | –
32 | C=CC1CCC1(NC(=O)[C@@H]1C[C@@H](Oc2cc(-c3ccccc3)nc3cc(OC)ccc23)CN1C(=O)[C@@H](NC(=O)OC(C)(C)C)C(C)(C)C)C(=O)O (some centres unmarked) | – | IC50 (Table 4): 220 nM
33 | C=CC1CC1(NC(=O)C1CC(Oc2nc(-c3ccccc3)nc3ccccc23)CN1C(=O)C(NC(=O)OC(C)(C)C)C(C)(C)C)C(=O)O (centres unmarked) | 190 nM | –
34 | CC(C)(C)OC(=O)N[C@H](C(=O)N1C[C@H](Oc2cc(-c3ccccc3)nc3ccc([N+](=O)[O-])cc23)C[C@H]1C(=O)NC1(C(=O)O)CC1)C1CCCCC1 | – | IC50 (Table 1): 2800 nM
35 | C=CC1CC1(NC(=O)C1CC(Oc2nc(N3CCOCC3)nc3cc(OC)c(OC)cc23)CN1C(=O)C(NC(=O)OC(C)(C)C)C(C)(C)C)C(=O)O (centres unmarked) | 50 nM | –
36 | CC(C)(C)OC(=O)N[C@H](C(=O)N1C[C@H](OCc2cccc3ccccc23)C[C@H]1C(=O)NC1(C(=O)O)CC1)C1CCCCC1 | – | IC50 (Table 1): 43000 nM
37 | CC(C)[C@H](NC(=O)OC(C)(C)C)C(=O)N1C[C@H](Oc2ccnc3cc(Cl)ccc23)C[C@H]1C(=O)NC1(C(=O)O)CCC1 | – | IC50 (Table 4): 5800 nM
38 | CCC1CC1(NC(=O)[C@@H]1C[C@@H](OCc2cccc3ccccc23)CN1C(=O)[C@@H](NC(=O)OC(C)(C)C)C1CCCCC1)C(=O)O (single isomer, unassigned) [202] | – | IC50 (Table 2): 40000 nM
39 | CC(C)[C@H](NC(=O)OC(C)(C)C)C(=O)N1C[C@H](Oc2ccnc3cc(Cl)ccc23)C[C@H]1C(=O)NC1(C(=O)O)CC1 | – | IC50 (Table 1): 9700 nM
40 | CC(C)(C)OC(=O)NC(C(=O)N1CC(Oc2nc(-c3ccccc3)nc3ccccc23)CC1C(=O)NC1(C(=O)O)CC1C1CC1)C(C)(C)C (centres unmarked) | 640 nM | –
41 | C=CC1CC1(NC(=O)C1CC(Oc2cc(-c3ccccc3)nc3ccccc23)CN1C(=O)C(NC(=O)C(F)(F)F)C(C)C)C(=O)O (centres unmarked) | 880 nM | –
42 | C=CC1CC1(NC(=O)C1CC(Oc2cc(-c3csc(NCC)n3)nc3cc(OC)ccc23)CN1C(=O)C(NC(=O)NC(C)C(C)(C)C)C(C)(C)C)C(=O)O (centres unmarked) | 7 nM | –
43 | CC(=O)N[C@H](C(=O)N1C[C@H](Oc2cc(-c3ccccc3)nc3ccc([N+](=O)[O-])cc23)C[C@H]1C(=O)NC1(C(=O)O)CC1)C1CCCCC1 | – | IC50 (Table 1): 6300 nM

Like-named read-outs stand apart in the source and are kept apart here.
